Measurements as given in paper PMC10012260 (ACS Infectious Diseases, 2023).

The chains behind the UniProt entries cited, without tags or fusion partners. Where a name states a change or a piece, a line headed by the entry shows the natural chain unless it says otherwise.
UniProt P35743: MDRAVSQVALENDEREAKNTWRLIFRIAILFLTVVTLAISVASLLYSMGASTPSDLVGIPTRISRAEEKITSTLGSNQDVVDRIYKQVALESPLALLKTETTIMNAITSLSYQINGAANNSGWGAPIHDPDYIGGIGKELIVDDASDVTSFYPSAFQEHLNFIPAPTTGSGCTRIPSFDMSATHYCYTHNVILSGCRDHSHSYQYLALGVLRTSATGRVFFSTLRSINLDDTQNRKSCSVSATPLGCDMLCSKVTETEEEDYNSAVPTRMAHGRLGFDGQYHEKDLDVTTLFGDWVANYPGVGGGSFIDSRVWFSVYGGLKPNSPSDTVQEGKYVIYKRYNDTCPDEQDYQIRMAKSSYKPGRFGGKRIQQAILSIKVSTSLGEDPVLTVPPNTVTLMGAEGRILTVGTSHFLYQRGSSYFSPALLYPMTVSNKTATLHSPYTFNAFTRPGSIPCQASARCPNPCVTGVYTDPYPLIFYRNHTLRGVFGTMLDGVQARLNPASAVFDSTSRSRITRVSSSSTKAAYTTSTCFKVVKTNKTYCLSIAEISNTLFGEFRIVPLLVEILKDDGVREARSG

Test system: NDV La Sota
Experiment: Plaque reduction assay (PRA) in Vero cells
Type: cell-based, Newcastle disease virus
Conditions: ratio between CC50 and IC50 observed in PRA

`[N-]=[N+]=N[C@H]1C=C(C(=O)O)O[C@@H]([C@H](O)[C@H](O)CO)[C@@H]1NC(=O)C(F)(F)F` [Compound 9] and `Cc1ccc(C(=O)N[C@H]2C=C(C(=O)O)O[C@@H]([C@H](O)[C@H](O)CO)[C@@H]2NC(=O)C(F)(F)F)cc1` [Compound 23, 2,6-Anhydro-4-(4-methylbenzamido)-3,4,5-trideoxy-5-(2,2,2-trifluoroacetamido)-D-glycero-D-galacto-non-2-enoic Acid] cannot be ordered by selectivity index (CC50/IC50): greater than 14700 for the first, greater than 3160 for the second.

Target: T1, La Sota Clone 30 NDV-HN (Newcastle disease virus, UniProt P35743)
Experiment: not given
Conditions: cited from earlier work

For `CC(=O)N[C@H]1[C@H]([C@H](O)[C@H](O)CO)OC(C(=O)O)=C[C@@H]1NS(=O)(=O)c1ccc(C)cc1`, the IC50 is given as 180 nM.

Target: T1, La Sota Clone 30 NDV-HN
Experiment: not given
Conditions: not given

First: CC(=O)N[C@H]1[C@H]([C@H](O)[C@H](O)CO)OC(C(=O)O)=C[C@@H]1NC(=O)c1ccc(C)cc1
Second: Cc1ccc(C(=O)N[C@H]2C=C(C(=O)O)O[C@@H]([C@H](O)[C@H](O)CO)[C@@H]2NC(=O)C(F)(F)F)cc1 [Compound 23, 2,6-Anhydro-4-(4-methylbenzamido)-3,4,5-trideoxy-5-(2,2,2-trifluoroacetamido)-D-glycero-D-galacto-non-2-enoic Acid]
The IC50 of the first is 18-fold higher: 1100 nM for the first, 60 nM for the second. The second is the more potent here.

Going from `O=C(O)C1=C[C@H](NS(=O)(=O)C(F)(F)F)[C@@H](NC(=O)C(F)(F)F)[C@H]([C@H](O)[C@H](O)CO)O1` to `CS(=O)(=O)N[C@H]1C=C(C(=O)O)O[C@@H]([C@H](O)[C@H](O)CO)[C@@H]1NC(=O)C(F)(F)F`, the IC50 falls from 11000 nM to 6300 nM (1.7-fold).

First: CC(=O)N[C@H]1[C@H]([C@H](O)[C@H](O)CO)OC(C(=O)O)=C[C@@H]1NS(C)(=O)=O
Second: CC(=O)N[C@H]1C=C(C(=O)O)O[C@@H]([C@H](O)[C@H](O)CO)[C@@H]1NC(=O)C(F)(F)F
The IC50 of the first is 11-fold higher: 13000 nM for the first, 1200 nM for the second.

`O=C(O)C1=C[C@H](NC(=O)c2ccccc2)[C@@H](NC(=O)C(F)(F)F)[C@H]([C@H](O)[C@H](O)CO)O1` and `O=C(O)C1=C[C@H](NS(=O)(=O)c2ccccc2)[C@@H](NC(=O)C(F)(F)F)[C@H]([C@H](O)[C@H](O)CO)O1` [Compound 19, 2,6-Anhydro-4-(phenylsulfonamido)-3,4,5-trideoxy-5-(2,2,2-trifluoroacetamido)-D-glycero-D-galacto-non-2-enoic Acid] are within 1.5-fold of each other in IC50: 850 nM for the first, 600 nM for the second.

Compound `O=C(O)C1=C[C@H](NC(=O)C(F)(F)F)[C@@H](NC(=O)C(F)(F)F)[C@H]([C@H](O)[C@H](O)CO)O1` [Compound 24, 2,6-Anhydro-3,4,5-trideoxy-4,5-di-(2,2,2-trifluoroacetamido)-D-glycero-D-galacto-non-2-enoic Acid] has an IC50 of 200 nM.
